Laboratory results from PMC4371151.
Like-named read-outs stand apart in the source and are kept apart here.

Sequences of proteins named here, by UniProt entry; tags and fusion partners are left off. A change or cut given only in a name is not applied to a line headed by its entry.
UniProt P9WHN5: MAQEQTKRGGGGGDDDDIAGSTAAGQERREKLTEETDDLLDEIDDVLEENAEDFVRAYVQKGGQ

Assays:
Details in all cases: designed binder
[1] = biological target: Pup (prokaryotic ubiquitin-like protein), bacterially expressed and purified (Mycobacterium tuberculosis) (UniProt P9WHN5)
[2] = biological target: Pup (prokaryotic ubiquitin-like protein), bacterially expressed and purified (Mycobacterium tuberculosis) (UniProt P9WHN5); remark: listed apart in the source
[3] = biological target: Pup (prokaryotic ubiquitin-like protein), bacterially expressed and purified (Mycobacterium tuberculosis) (UniProt P9WHN5); remark: listed apart in the source

Question: Which Kd [1] does the source give for “Peptide aptamer PA-1, expressed from pBAD-PA (from UniProt P0AA25 1-109)” here?
Answer: The Kd was 22 nM.

Question: For “Peptide aptamer PA-3, expressed from pBAD-PA (from UniProt P0AA25 1-109)”, which Kd [2] is on record?
Answer: Its Kd is 30 nM.

Question: Which Kd [3] does the source give for “Peptide aptamer PA-7, expressed from pBAD-PA (from UniProt P0AA25 1-109)” here?
Answer: The Kd was 120 nM.
